{"source": "patent US11608371", "target": "Protein A (Sensor Chip Protein A, Cytiva) (UniProt P38507)", "assay": "SPR (Biacore 8K), Sensor Chip Protein A, kinetics affinity, 1:1 binding fit; Bedinvetmab made in CHO-s"}
{"substance": "Bedinvetmab (antibody)", "values": [{"measurement": "Kd", "value": 0.01, "unit": "nM"}]}
